Some results are limits rather than exact numbers.

The test system of the experiment is VEEV TC-83 virus expressing a luciferase reporter gene (TC-83-luc). The experiment can be described thus: VEEV TC-83-luc luciferase reporter replication assay in Vero cells. The experiment is classed as cell-based, Venezuelan equine encephalitis virus. The conditions noted are these: CC50 Vero / EC50 TC-83-luc. On the technique in general: Reporter assays use an easily measured gene product as a stand-in for the process of interest.

With `CC#C[C@]1(O)CC[C@H]2[C@@H]3CCC4=CC(=O)CCC4=C3[C@@H](c3ccc(N(C)C)cc3)C[C@@]21C` [Compound 1, mifepristone, reference compound], the SI, selectivity index (CC50/EC50) is 8.3.

With `CN(C)c1ccc([C@H]2C[C@@]3(C)[C@@H](CC[C@@]3(O)C#C[Si](C)(C)C)[C@@H]3CCC4=CC(=O)CCC4=C32)cc1` [Compound 33], the SI, selectivity index (CC50/EC50) was > 11.8.

`COc1ccc(C#C[C@]2(O)CC[C@H]3[C@@H]4CC[C@@]5(O)CC6(CCC5=C4[C@@H](c4ccc(N(C)C)cc4)C[C@@]32C)OCCO6)cc1` [Compound 37]: the SI, selectivity index (CC50/EC50) was > 60.3.

For the origin of these results see PMC6385310 (Scientific Reports, 2019).
